Compound potency records, mixed from different reports. Data source: NIAID ChemDB in PubChem.

All rows: toxicity to cultured cells; cell line: Jurkat cells; measure: CC50

Blank or dashed fields: not listed here.

structure,method,value
CS(=O)CCCCN=C=S,MTT,9.95 µM
COc1ccc(C=O)cc1O,MTT / absorbance,>100 µM
NC(=O)c1sc2cncc(N3CCCCC3)c2c1N,MTT,41.4 µM
COc1cc2c(c(OC)c1OC)-c1c(cc3c(c1OC)OCO3)C[C@H](C)[C@H](C)C2,MTT,>100 µM
NC(=O)c1cc2c(-c3ccc4ccccc4c3)cncc2s1,MTT,20.5 µM
CCCCCCCCCCCCCCCC(=O)OCC(CO)(CO)NC(=O)CNC(=O)CCC(=O)OC[C@H]1O[C@@H](n2cc(C)c(=O)[nH]c2=O)C[C@@H]1N=[N+]=[N-],,43 µM
Nc1nc(=O)n([C@@H]2CO[C@H](CO)S2)cc1F,,>500 µM
CC(=O)O[C@H]1CC[C@@]2(C)C(CC[C@@]3(C)C4CC[C@@]5(C)CCC(C)(C)C[C@H]5C4=CCC32)C1(C)C,MTT / absorbance,>100 µM
CCCCCCCCCCCCCCCC(=O)OCC(CO)(CO)NC(=O)CNC(=O)CCCc1ccc(C(CCCl)CCCl)cc1,,6.5 µM
CC(C)[C@@H]1NC(=O)[C@H](C)OC(=O)[C@@H](C(C)C)NC(=O)[C@@H](C(C)C)OC(=O)[C@H](C(C)C)NC(=O)[C@H](C)OC(=O)[C@@H](C(C)C)NC(=O)[C@@H](C(C)C)OC(=O)[C@H](C(C)C)NC(=O)[C@H](C)OC(=O)[C@@H](C(C)C)NC(=O)[C@@H](C(C)C)OC1=O,luminescence,0.2 µM
COc1ccc(C(=O)O)c(O)c1,MTT / absorbance,>100 µM
C=C[C@@H](C1=CC(=O)C(OC)=C(OC)C1=O)c1ccccc1,luminescence,2.9 µM
Cc1cc(=O)c2ccc(N=C=S)cc2o1,MTT,9.95 µM
COc1cc(/C=C/C(=O)N2CCC=CC2=O)cc(OC)c1OC,luminescence,2 µM
Nc1ccn([C@@H]2CO[C@H](CO)S2)c(=O)n1,,11 µM

Neighbouring rows are from separate reports. CCn is the concentration with n% toxicity to the cells.